Compound potency records, mixed from different reports. Data source: NIAID ChemDB in PubChem.

All rows: host cell toxicity; cells: MT-4; read by: MTT; read-out: CC50

Neighbouring rows are from separate reports. CCn: concentration that lowers growth or viability of the cells by n%. An empty or dashed field is not shown.

SMILES | setting | value
Fc1ccc(-c2nnc3sc(CC45CC6CC(CC(C6)C4)C5)nn23)cc1 |  | 65.33 µg/mL
Cc1cc(C)cc(Oc2c(C(C)C)c(=O)[nH]c(=O)n2Cc2ccccc2C#N)c1 |  | >100 µg/mL
Cc1ccccc1Sc1c(C(=O)NNCCO)[nH]c2ccc(Cl)cc12 |  | 21 µM
Cc1c(C(=O)O)c(=O)c2cc(N)c(N3CCN(c4ccccn4)CC3)cc2n1C |  | 177 µM
C=CCOc1cccc(Cc2[nH]c(=O)c(CC)c(O)c2CC)c1 |  | 77 µM
COc1ccc(CCN2C(=O)/C(=C\c3ccc(F)cc3)N(CCc3ccc(OC)c(OC)c3)C2=S)cc1OC |  | 18.5 µg/mL
N#Cc1c([N+](=O)[O-])c(-c2ccccc2)n(COCCO)c1-c1ccccc1 |  | >300 µM
Fc1cccc(NC(=S)NC2CCN(Cc3ccccc3)CC2)c1 |  | 32 µM
Cc1cc(C)c(-n2c(SCC(=O)Nc3ccccc3[N+](=O)[O-])nc3cnccc32)c(C)c1 |  | 9.9 µM
CC(=O)OCCOCn1c(-c2ccccc2)c(Br)c(-c2ccccc2)c1-c1ccccc1 |  | 16 µM
CN1C/C(=C\c2ccc(O)c(O)c2)C(=O)/C(=C/c2ccc(O)c(O)c2)C1 |  | 5 µM
Fc1cccc(-c2nnc3sc(CC45CC6CC(CC(C6)C4)C5)nn23)c1 |  | >125 µg/mL
CCc1c(Oc2cc(C)cc(C)c2)n(Cc2ccc(OC(F)(F)F)cc2)c(=O)[nH]c1=O |  | >100 µg/mL
CCOC(=O)c1ccc(NC(=O)CSc2nc3cnccc3n2-c2c(C)cc(C)cc2C)c(Br)c1 |  | 22 µM
S=C(Nc1cccc(Cl)c1)NC1CCN(Cc2ccccc2)CC1 |  | 28 µM
CCc1c(Oc2cc(C)cc(C)c2)n(CC2CC2)c(=O)[nH]c1=O |  | >100 µg/mL
C=CCOc1cccc(Cc2nc(SC)[nH]c(=O)c2CC)c1 |  | 80 µM
O=C(COc1ccc2ccccc2c1)NCc1n[nH]c(=S)n1-c1ccccc1 |  | 20.2 µg/mL
Clc1ccccc1-c1nnc2sc(CC34CC5CC(CC(C5)C3)C4)nn12 |  | ≥12.4 µg/mL
Fc1ccccc1NC(=S)NCc1ccco1 |  | 100 µM
CCOCn1c(Cc2cccc(CCC3CO3)c2)c(CC)c(=O)[nH]c1=O |  | >100 µM
Cc1ccc(-c2c(C)c3c(c(C)c2[C@H](OC(C)(C)C)C(=O)O)N(S(C)(=O)=O)Cc2cc(F)ccc2-3)cc1 |  | 19 µM
C=C(CC[C@](C)(O)[C@H]1[C@@H](O)C[C@H]2[C@@H]3[C@H](O)C=C4C[C@@H](O)CC[C@]4(C)[C@H]3CC[C@@]21C)C(C)C |  | 11.35 µM
COc1ccc(CCN2C(=O)/C(=C\c3cccc(Cl)c3)N(CCc3ccc(OC)c(OC)c3)C2=S)cc1OC |  | 59.95 µg/mL
CCCCOP(=O)(CN[C@@H](Cc1ccccc1)[C@H](O)CN(CC(C)C)S(=O)(=O)c1ccc(OC)cc1)OCCCC |  | 13.08 µg/mL
Nc1c(-c2ccccc2)c(-c2ccccc2)n(COCCO)c1-c1ccccc1 |  | 42 µM
Nc1ccn([C@H]2CC[C@@H](CO)O2)c(=O)n1 |  | 2451 µM
CC(=O)OCC(=O)O[C@@H]1[C@H]2[C@@H](OC(=O)c3ccccc3)[C@@H](C)C[C@]2(O)[C@H](OC(C)=O)[C@]2(C)C(OC(C)=O)[C@@]1(OC(C)=O)C[C@H]1C(=O)C(C)(C)C[C@@H]12 |  | >100 µg/mL
CCOP(=O)(CN[C@@H](Cc1ccccc1)[C@H](O)CN(CC(C)C)S(=O)(=O)c1ccc(OC)cc1)OCC |  | 64.5 µg/mL
Fc1ccccc1NC(=S)NC1CCN(Cc2ccccc2)CC1 |  | 95 µM
COc1ccc(-n2c(CNC(=O)COc3ccc4ccccc4c3)n[nH]c2=S)cc1 |  | ≥46.2 µg/mL
Cc1ccc(-c2nnc3sc(CC45CC6CC(CC(C6)C4)C5)nn23)cc1 |  | >125 µg/mL
[N-]=[N+]=Nc1c(-c2ccccc2)c(-c2ccccc2)n(COCCO)c1-c1ccccc1 |  | 65 µM
CCOC(=O)C1C/C(=C\c2cc(O)c(O)c(O)c2)C(=O)/C(=C/c2cc(O)c(O)c(O)c2)C1 |  | 67 µM
COc1ccc(CCN2C(=O)/C(=C\c3ccccc3)N(CCc3ccc(OC)c(OC)c3)C2=S)cc1OC |  | 56.6 µg/mL
Nn1cc(C(=O)O)c(=O)c2cc(O)c(N3CCN(c4ccccn4)CC3)cc21 |  | 185 µM
COc1cc(C[C@@H](C)[C@@H](C)Cc2cc(O)c(OC)c(OC)c2)cc(O)c1OC |  | 21.88 µg/mL
Cc1ccc(S(=O)(=O)c2c(C(=O)NNCCO)[nH]c3ccc(Cl)cc23)cc1 |  | >100 µM
CCOCn1c(Cc2cccc(CCC=O)c2)c(CC)c(=O)[nH]c1=O |  | >100 µM
Nn1cc(C(=O)O)c(=O)c2ccc(N3CCN(c4nc5ccccc5s4)CC3)cc21 |  | >296 µM
OC(/C=C/c1ccc(Cl)c(Cl)c1)/C=C/c1ccc(Cl)c(Cl)c1 |  | 121 µM
O=C(O)CN(CCCN(CCN(CC(=O)O)CC(=O)O)Cc1cnc2c(O)cccc2c1)CC(=O)O |  | >50 µM
CCOC(=O)c1c([N+](=O)[O-])c(-c2ccccc2)n(COCCO)c1-c1ccccc1 |  | 163 µM
C=C(CC[C@](C)(O)[C@H]1C(=O)C[C@H]2[C@@H]3C(=O)C[C@H]4C[C@H](O)CC[C@]4(C)[C@H]3CC[C@@]21C)C(C)C |  | >25 µM
COC(=O)c1ccc(Nc2ccc(OC)c3ccccc23)cc1 |  | 1.07 µM
Cc1ccc(Sc2c(C(=O)NNCCO)[nH]c3ccc(Cl)cc23)cc1 |  | >100 µM
O=C(COc1ccc2ccccc2c1)NCc1nnc(Nc2ccccc2)s1 |  | 0.96 µg/mL
CN1C/C(=C\c2ccc([N+](=O)[O-])c(O)c2)C(=O)/C(=C/c2ccc([N+](=O)[O-])c(O)c2)C1 |  | 1.9 µM
Cc1ccccc1S(=O)(=O)c1c(C(=O)NNCCO)[nH]c2ccc(Cl)cc12 |  | >100 µM
C=CCOc1cccc(Cc2[nH]c(=S)[nH]c(=O)c2CC)c1 |  | 86 µM
NCCCc1cn([C@H]2C=C[C@@H](CO)O2)c(=O)[nH]c1=O |  | 470 µM
Cc1cc(C)cc(Oc2c(C(C)C)c(=O)[nH]c(=O)n2Cc2cc(C(F)(F)F)cc(C(F)(F)F)c2)c1 |  | >100 µg/mL
C=C1[C@H](OC(C)=O)[C@H]2[C@@H](OC(C)=O)[C@@H](C)C[C@]2(OC(C)=O)C(=O)[C@@H](C)/C=C/C(C)(C)C(=O)[C@@H](OCC(C)C)[C@H]1OC(C)=O |  | 45 µg/mL
Nc1cc2c(=O)c(C(=O)O)csc2cc1N1CCN(c2ccccn2)CC1 |  | 138 µM
Cc1cc(C)cc(Oc2c(C(C)C)c(=O)[nH]c(=O)n2Cc2ccccn2)c1 |  | >100 µg/mL
O=C(NCCO)c1[nH]c2ccc(Cl)cc2c1S(=O)(=O)c1ccccc1 |  | >100 µM
Cc1cc(C)c(-n2c(SCC(=O)Nc3ccccc3Br)nc3cccnc32)c(C)c1 |  | 5.6 µM
CCc1c(C(=O)c2cc(C)cc(C)c2)n(Cc2cc(F)ccc2F)c(=O)[nH]c1=O |  | >100 µg/mL
O=c1[nH]c(=O)n([C@@H]2C=C[C@H](CO)O2)cc1CCO |  | >1 µM
NC(=O)c1[nH]c2ccc(Cl)cc2c1S(=O)(=O)c1ccccc1 |  | 84 µM
COc1cc([C@H]2O[C@@H](c3ccc(O)cc3)[C@H](C)[C@@H]2C)ccc1O |  | 83.18 µg/mL
COC(=O)Cc1cn([C@@H]2C=C[C@H](COP(=O)(N[C@@H](C)C(=O)OC)Oc3ccccc3)O2)c(=O)[nH]c1=O |  | >100 µM
COc1ccc(CCN2C(=O)/C(=C\c3ccccc3-c3ccco3)N(CCc3ccc(OC)c(OC)c3)C2=S)cc1OC |  | 17.35 µg/mL
CC(=O)N[C@H]1CSSC[C@@H](C(=O)N[C@@H](Cc2ccc(O)cc2)C(=O)O)NC(=O)[C@H](CCCCN)NC(=O)[C@H](CC(N)=O)NC1=O | 2 d | >2.5 µM
CCN1C/C(=C\c2cc(O)c(O)c(O)c2)C(=O)/C(=C/c2cc(O)c(O)c(O)c2)C1 |  | 40 µM
Nc1cc2c(=O)c(C(=O)O)cn(N)c2cc1N1CCN(c2cccc(C(F)(F)F)c2)CC1 |  | 4.49 µM
Cc1ccc(S(=O)(=O)c2c(C(=O)NCCO)[nH]c3ccc(Cl)cc23)cc1 |  | >100 µM
O=C(O)c1c([N+](=O)[O-])c(-c2ccccc2)n(COCCO)c1-c1ccccc1 |  | >300 µM
C=Cn1cc(C(=O)O)c(=O)c2ccc(N3CCN(c4cccc(C(F)(F)F)c4)CC3)cc21 |  | 5.97 µM
Cc1ccc(S(=O)(=O)Sc2nnc(CNC(=O)COc3ccc4ccccc4c3)n2-c2ccccc2)cc1 |  | 12.7 µg/mL
O=C(O)CC1C/C(=C\c2ccc(O)c(O)c2)C(=O)/C(=C/c2ccc(O)c(O)c2)C1 |  | 41 µM
Brc1ccccc1-c1nnc2sc(CC34CC5CC(CC(C5)C3)C4)nn12 |  | >24.7 µg/mL
Cc1ccc(-n2c(CNC(=O)COc3ccc4ccccc4c3)n[nH]c2=S)cc1 |  | 53.2 µg/mL
O=[N+]([O-])c1cc(-c2ccccc2)n(COCCO)c1-c1ccccc1 |  | 46 µM
CC(=O)Nn1cc(C(=O)O)c(=O)c2cc(N)c(N3CCN(c4ccccn4)CC3)cc21 |  | >295.9 µM
CCc1c(Oc2cc(C)cc(C)c2)n(CC2CCC2)c(=O)[nH]c1=O |  | >100 µg/mL
COC(=O)Cc1cn([C@@H]2C=C[C@H](CO)O2)c(=O)[nH]c1=O |  | >100 µM
CCOC(=O)c1c(Cl)c(-c2ccccc2)n(COCCOC(C)=O)c1C |  | 82 µM
CC(=O)OC1[C@@]2(OC(C)=O)CC3=C([C@H](OC(C)=O)C(C)(C)C3=O)[C@]1(C)[C@H](OC(C)=O)[C@@]1(O)C[C@H](C)[C@H](OC(=O)c3ccccc3)[C@@H]1[C@H]2OC(C)=O |  | >100 µg/mL
Cc1cc(C)cc(Oc2c(C(C)C)c(=O)[nH]c(=O)n2Cc2cc(Br)cc(Br)c2)c1 |  | >100 µg/mL
Cn1cc(C(=O)O)c(=O)c2cc(N)c(N3CCN(c4ccccn4)CC3)cc21 |  | 2.21 µM
CC(=O)OC1[C@]2(C)[C@@H]3[C@@H](C[C@@]1(OC(C)=O)[C@H](OC(C)=O)[C@H]1[C@@H](OC(=O)c4ccccc4)[C@@H](C)C[C@]1(O)[C@@H]2OC(C)=O)C(=O)C(C)(C)[C@H]3OC(C)=O |  | >100 µg/mL
Cc1cc(C)c(-n2c(SCC(=O)Nc3ccccc3F)nc3cnccc32)c(C)c1 |  | 18 µM
CCOCn1c(Cc2ccccc2)c(C(C)C)c(=O)[nH]c1=O |  | >100 µM
Cc1ccc(-c2c(C)c3c(c(C)c2[C@H](OC(C)(C)C)C(=O)O)N(S(C)(=O)=O)Cc2cccc(F)c2-3)c(O)c1 |  | >50 µM
O=C1CN=C(COc2ccc3ccccc3c2)NN1 |  | 5.2 µg/mL
CCOC(=O)CC1C/C(=C\c2cc(O)c(O)c(O)c2)C(=O)/C(=C/c2cc(O)c(O)c(O)c2)C1 |  | 40 µM
Brc1ccc(-c2nnc3sc(CC45CC6CC(CC(C6)C4)C5)nn23)cc1 |  | >125 µg/mL

Repeating the final 13 entries:

SMILES | setting | value
CCc1c(Oc2cc(C)cc(C)c2)n(CC2CCC2)c(=O)[nH]c1=O |  | >100 µg/mL
COC(=O)Cc1cn([C@@H]2C=C[C@H](CO)O2)c(=O)[nH]c1=O |  | >100 µM
CCOC(=O)c1c(Cl)c(-c2ccccc2)n(COCCOC(C)=O)c1C |  | 82 µM
CC(=O)OC1[C@@]2(OC(C)=O)CC3=C([C@H](OC(C)=O)C(C)(C)C3=O)[C@]1(C)[C@H](OC(C)=O)[C@@]1(O)C[C@H](C)[C@H](OC(=O)c3ccccc3)[C@@H]1[C@H]2OC(C)=O |  | >100 µg/mL
Cc1cc(C)cc(Oc2c(C(C)C)c(=O)[nH]c(=O)n2Cc2cc(Br)cc(Br)c2)c1 |  | >100 µg/mL
Cn1cc(C(=O)O)c(=O)c2cc(N)c(N3CCN(c4ccccn4)CC3)cc21 |  | 2.21 µM
CC(=O)OC1[C@]2(C)[C@@H]3[C@@H](C[C@@]1(OC(C)=O)[C@H](OC(C)=O)[C@H]1[C@@H](OC(=O)c4ccccc4)[C@@H](C)C[C@]1(O)[C@@H]2OC(C)=O)C(=O)C(C)(C)[C@H]3OC(C)=O |  | >100 µg/mL
Cc1cc(C)c(-n2c(SCC(=O)Nc3ccccc3F)nc3cnccc32)c(C)c1 |  | 18 µM
CCOCn1c(Cc2ccccc2)c(C(C)C)c(=O)[nH]c1=O |  | >100 µM
Cc1ccc(-c2c(C)c3c(c(C)c2[C@H](OC(C)(C)C)C(=O)O)N(S(C)(=O)=O)Cc2cccc(F)c2-3)c(O)c1 |  | >50 µM
O=C1CN=C(COc2ccc3ccccc3c2)NN1 |  | 5.2 µg/mL
CCOC(=O)CC1C/C(=C\c2cc(O)c(O)c(O)c2)C(=O)/C(=C/c2cc(O)c(O)c(O)c2)C1 |  | 40 µM
Brc1ccc(-c2nnc3sc(CC45CC6CC(CC(C6)C4)C5)nn23)cc1 |  | >125 µg/mL